Sequences of proteins named here, by UniProt entry; tags and fusion partners are left off.
UniProt P04775, whole entry, looked up: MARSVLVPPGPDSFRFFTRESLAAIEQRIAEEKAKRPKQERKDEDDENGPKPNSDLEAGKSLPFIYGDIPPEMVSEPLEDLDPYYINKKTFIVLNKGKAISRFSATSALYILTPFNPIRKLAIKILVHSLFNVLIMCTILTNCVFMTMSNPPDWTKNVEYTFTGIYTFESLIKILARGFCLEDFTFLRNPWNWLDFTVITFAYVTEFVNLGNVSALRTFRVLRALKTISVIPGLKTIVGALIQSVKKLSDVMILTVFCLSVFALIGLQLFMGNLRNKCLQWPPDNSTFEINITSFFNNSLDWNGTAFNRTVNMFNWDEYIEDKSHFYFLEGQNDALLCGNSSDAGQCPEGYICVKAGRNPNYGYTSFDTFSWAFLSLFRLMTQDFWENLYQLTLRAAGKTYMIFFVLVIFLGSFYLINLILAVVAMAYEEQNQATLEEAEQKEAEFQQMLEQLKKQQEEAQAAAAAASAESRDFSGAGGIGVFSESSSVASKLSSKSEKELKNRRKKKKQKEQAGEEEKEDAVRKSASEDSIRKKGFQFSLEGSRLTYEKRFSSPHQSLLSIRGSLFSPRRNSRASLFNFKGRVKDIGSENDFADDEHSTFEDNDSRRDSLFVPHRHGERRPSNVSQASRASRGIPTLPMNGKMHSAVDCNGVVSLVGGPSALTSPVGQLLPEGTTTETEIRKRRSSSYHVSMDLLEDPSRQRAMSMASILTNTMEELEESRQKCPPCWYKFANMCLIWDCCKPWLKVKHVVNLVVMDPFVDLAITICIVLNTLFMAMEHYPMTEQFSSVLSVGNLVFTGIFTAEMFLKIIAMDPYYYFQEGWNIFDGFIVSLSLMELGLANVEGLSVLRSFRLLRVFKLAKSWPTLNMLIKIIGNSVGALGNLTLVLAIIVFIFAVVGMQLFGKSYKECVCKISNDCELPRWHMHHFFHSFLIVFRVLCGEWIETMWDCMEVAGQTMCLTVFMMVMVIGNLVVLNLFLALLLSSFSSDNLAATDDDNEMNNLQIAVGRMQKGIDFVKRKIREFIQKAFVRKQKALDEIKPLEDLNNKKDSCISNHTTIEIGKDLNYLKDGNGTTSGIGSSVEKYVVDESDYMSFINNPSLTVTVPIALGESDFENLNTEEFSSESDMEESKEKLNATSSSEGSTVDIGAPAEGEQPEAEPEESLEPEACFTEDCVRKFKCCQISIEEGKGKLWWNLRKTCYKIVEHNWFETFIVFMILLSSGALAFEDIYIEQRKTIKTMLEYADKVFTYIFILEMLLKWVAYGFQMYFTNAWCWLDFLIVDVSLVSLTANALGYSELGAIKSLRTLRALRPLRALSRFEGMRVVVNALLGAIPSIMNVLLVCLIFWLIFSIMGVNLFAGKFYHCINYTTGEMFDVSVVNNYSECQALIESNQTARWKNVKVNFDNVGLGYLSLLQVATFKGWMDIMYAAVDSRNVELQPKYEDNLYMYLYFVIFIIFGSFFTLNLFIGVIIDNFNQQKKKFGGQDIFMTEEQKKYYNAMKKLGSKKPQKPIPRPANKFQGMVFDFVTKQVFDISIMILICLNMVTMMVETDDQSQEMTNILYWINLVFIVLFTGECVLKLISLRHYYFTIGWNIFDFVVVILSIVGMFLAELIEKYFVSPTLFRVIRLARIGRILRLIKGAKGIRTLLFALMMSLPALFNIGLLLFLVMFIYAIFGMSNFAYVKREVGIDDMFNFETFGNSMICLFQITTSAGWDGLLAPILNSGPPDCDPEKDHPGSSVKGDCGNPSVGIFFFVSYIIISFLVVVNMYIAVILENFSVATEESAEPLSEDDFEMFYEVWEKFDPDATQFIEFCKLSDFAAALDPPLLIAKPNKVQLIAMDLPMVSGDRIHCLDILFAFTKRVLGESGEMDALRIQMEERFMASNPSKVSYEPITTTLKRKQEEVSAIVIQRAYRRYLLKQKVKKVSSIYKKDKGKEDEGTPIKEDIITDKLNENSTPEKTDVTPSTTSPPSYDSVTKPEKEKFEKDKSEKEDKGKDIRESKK
UniProt P04775, whole entry I1760A, looked up: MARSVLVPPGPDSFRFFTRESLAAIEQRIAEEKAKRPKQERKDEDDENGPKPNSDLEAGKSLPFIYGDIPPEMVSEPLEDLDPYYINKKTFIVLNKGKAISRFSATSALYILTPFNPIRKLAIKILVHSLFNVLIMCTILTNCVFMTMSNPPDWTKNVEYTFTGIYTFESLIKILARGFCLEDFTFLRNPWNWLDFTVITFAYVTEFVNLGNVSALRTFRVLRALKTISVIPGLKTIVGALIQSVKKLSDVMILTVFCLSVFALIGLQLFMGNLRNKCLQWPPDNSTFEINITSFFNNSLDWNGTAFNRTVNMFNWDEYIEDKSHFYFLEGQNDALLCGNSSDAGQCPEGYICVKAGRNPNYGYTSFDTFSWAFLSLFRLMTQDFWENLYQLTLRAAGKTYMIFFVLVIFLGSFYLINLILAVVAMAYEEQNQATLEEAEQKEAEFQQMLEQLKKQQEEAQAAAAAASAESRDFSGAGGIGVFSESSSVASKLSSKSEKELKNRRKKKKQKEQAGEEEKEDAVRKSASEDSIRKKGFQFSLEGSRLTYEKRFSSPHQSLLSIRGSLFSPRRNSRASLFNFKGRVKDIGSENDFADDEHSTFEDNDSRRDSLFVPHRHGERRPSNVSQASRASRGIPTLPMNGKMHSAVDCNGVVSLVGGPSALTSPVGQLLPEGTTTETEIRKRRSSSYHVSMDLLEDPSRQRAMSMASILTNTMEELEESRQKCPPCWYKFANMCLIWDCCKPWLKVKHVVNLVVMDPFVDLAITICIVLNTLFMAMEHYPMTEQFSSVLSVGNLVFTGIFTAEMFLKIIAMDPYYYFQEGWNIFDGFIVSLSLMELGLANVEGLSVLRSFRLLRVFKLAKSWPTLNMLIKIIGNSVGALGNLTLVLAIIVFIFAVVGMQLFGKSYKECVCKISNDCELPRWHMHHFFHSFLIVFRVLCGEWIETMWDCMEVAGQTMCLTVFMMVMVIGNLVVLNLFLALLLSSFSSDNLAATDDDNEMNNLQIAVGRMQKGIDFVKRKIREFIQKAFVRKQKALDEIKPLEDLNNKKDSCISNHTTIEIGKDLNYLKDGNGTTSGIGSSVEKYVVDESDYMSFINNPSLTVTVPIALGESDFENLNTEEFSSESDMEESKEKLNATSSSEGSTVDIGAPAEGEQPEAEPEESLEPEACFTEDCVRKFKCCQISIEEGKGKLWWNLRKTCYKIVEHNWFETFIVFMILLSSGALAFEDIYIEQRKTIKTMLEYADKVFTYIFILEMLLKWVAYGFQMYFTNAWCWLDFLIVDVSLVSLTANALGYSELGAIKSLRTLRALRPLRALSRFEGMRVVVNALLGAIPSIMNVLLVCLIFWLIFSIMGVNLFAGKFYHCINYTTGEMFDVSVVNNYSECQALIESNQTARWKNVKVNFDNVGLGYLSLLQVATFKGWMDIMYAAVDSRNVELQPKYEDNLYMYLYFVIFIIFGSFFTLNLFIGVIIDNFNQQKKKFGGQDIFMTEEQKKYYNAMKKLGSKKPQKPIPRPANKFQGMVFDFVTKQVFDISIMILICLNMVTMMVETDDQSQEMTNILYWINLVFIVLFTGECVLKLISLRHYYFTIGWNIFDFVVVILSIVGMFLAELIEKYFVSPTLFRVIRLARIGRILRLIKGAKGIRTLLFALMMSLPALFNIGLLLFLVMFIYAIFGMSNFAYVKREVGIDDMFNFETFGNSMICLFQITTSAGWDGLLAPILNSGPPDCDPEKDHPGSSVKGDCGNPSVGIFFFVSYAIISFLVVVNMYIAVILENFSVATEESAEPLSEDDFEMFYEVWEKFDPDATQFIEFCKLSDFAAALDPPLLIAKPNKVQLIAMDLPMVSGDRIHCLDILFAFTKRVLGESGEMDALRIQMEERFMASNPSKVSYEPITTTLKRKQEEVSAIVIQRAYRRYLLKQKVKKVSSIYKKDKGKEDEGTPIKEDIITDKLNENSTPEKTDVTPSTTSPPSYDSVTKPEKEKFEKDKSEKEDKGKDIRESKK
UniProt P04775, whole entry F1756A, looked up: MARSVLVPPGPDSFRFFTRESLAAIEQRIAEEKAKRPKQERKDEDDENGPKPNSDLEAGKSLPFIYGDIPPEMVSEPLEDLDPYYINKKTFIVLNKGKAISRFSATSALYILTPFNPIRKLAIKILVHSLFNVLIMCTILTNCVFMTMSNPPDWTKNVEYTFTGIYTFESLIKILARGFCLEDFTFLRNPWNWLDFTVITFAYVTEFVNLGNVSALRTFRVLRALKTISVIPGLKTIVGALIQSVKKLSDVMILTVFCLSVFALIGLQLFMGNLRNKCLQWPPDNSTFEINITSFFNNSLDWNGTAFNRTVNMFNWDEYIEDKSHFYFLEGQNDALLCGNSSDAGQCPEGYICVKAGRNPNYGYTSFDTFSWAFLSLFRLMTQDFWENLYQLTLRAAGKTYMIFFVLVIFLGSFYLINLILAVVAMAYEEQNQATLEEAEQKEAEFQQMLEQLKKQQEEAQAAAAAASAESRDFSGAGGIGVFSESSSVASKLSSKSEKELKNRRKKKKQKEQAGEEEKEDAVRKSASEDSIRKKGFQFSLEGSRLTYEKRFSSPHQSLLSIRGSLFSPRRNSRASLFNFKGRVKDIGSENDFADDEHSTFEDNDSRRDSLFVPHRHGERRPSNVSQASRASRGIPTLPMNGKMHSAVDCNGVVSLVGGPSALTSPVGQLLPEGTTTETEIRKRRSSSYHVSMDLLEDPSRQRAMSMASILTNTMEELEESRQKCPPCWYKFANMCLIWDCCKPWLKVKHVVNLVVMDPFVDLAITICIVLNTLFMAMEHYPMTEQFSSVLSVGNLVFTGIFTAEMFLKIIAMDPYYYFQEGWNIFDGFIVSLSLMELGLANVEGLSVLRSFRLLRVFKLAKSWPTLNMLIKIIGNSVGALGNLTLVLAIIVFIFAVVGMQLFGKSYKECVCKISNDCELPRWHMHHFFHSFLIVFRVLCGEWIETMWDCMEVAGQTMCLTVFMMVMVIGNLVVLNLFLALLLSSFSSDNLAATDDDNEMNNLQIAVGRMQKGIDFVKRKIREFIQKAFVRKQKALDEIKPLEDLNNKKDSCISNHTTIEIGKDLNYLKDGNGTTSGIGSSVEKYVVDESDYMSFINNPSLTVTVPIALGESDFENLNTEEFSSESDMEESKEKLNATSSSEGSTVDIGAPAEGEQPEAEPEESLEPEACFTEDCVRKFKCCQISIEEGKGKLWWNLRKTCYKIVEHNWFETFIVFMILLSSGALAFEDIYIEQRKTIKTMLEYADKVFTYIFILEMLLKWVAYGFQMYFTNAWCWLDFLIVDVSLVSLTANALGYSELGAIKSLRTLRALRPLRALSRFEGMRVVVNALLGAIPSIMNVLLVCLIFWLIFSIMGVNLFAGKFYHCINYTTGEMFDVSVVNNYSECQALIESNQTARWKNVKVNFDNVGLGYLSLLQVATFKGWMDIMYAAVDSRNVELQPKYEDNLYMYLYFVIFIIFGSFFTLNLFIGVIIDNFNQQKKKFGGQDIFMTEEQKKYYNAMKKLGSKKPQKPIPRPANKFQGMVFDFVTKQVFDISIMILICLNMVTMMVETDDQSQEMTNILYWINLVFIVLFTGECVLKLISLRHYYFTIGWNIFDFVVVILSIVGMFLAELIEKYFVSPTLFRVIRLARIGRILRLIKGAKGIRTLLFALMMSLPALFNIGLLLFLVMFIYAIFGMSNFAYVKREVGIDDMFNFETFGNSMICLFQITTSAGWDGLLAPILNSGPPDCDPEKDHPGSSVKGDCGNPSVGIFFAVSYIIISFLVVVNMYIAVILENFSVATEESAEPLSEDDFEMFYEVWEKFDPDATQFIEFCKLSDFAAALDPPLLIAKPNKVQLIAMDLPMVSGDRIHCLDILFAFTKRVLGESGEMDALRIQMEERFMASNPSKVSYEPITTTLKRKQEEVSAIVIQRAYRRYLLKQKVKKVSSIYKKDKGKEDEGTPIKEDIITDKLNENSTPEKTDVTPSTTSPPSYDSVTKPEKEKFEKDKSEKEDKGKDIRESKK

According to PMC6784055 (Toxins, 2019):

What was measured:
Nav1.2 = Nav1.2 (Rattus norvegicus, UniProt P04775); experiment: [42-^3H]-PbTx3 dissociation kinetics, Nav1.2; details: 4 °C, dissociation started with 600 nM PbTx1
wild type Nav1.2 = wild type Nav1.2 (Rattus norvegicus, UniProt P04775); experiment: Saturation binding of [42-^3H]-PbTx3 to membrane fractions of transfected tsA-201 cells, wild type; details: read-out: dissociation constant (Kd); wild type Nav1.2 in tsA-201 membrane fractions, 3 h incubation, one-site model; mean ± SEM, n = 30
Nav1.5 [1] = molecular target: T1, Nav1.5 (Homo sapiens, UniProt Q14524); experiment: Saturation binding of [42-^3H]-PbTx3 to transiently expressed Nav1.5
Nav1.5 [2] = molecular target: T1, Nav1.5; experiment: [42-^3H]-PbTx3 dissociation kinetics, Nav1.5
Nav1.2 F1697A = experiment: Saturation binding, IVS5-SS1 loop alanine mutant
Nav1.2 E1688A = experiment: Saturation binding, IVS5-SS1 loop alanine mutant
Nav1.4 = Nav1.4 (Homo sapiens, UniProt P35499); experiment: Saturation binding of [42-^3H]-PbTx3 to transiently expressed Nav1.4; details: mean ± SEM, n = 5
Nav1.2 S1758A = experiment: Saturation binding, IVS6 alanine mutant
Nav1.2 I1760A = Nav1.2 I1760A (Rattus norvegicus, UniProt P04775, I1760A); experiment: Saturation binding, IVS6 alanine mutant
Nav1.2 F1756A = Nav1.2 F1756A (Rattus norvegicus, UniProt P04775, F1756A); experiment: Saturation binding, IVS6 alanine mutant
Nav1.2 I1761 = Nav1.2 I1761 (Rattus norvegicus, UniProt P04775, I1761A); experiment: Saturation binding, IVS6 alanine mutant
Nav1.2 I1772A = Nav1.2 I1772A (Rattus norvegicus, UniProt P04775, I1772A); experiment: Saturation binding, IVS6 alanine mutant
Nav1.2 Y1771A = Nav1.2 Y1771A (Rattus norvegicus, UniProt P04775, Y1771A); experiment: Saturation binding, IVS6 alanine mutant
Nav1.2 L407A = experiment: Saturation binding, IS6 alanine mutant
Nav1.2 V408A = experiment: Saturation binding, IS6 alanine mutant
Nav1.2 F414A = experiment: Saturation binding, IS6 alanine mutant
Nav1.2 Y415A = experiment: Saturation binding, IS6 alanine mutant
Nav1.2 G412A = experiment: Saturation binding, IS6 alanine mutant
Nav1.2 M402A = experiment: Saturation binding, IS6 alanine mutant
Nav1.2 V1670A = experiment: Saturation binding, IVS5 alanine mutant
Nav1.2 G1678A = experiment: Saturation binding, IVS5 alanine mutant
Nav1.2 L1669A = experiment: Saturation binding, IVS5 alanine mutant
Nav1.2 Y1684A = experiment: Saturation binding, IVS5 alanine mutant
Nav1.2 G1664A = experiment: Saturation binding, IVS5 alanine mutant
Nav1.2 L1666A = experiment: Saturation binding, IVS5 alanine mutant
Nav1.2 I1663A = experiment: Saturation binding, IVS5 alanine mutant
Nav1.2 N1662A = Nav1.2 N1662A (Rattus norvegicus, UniProt P04775, N1662A); experiment: Saturation binding, IVS5 alanine mutant; details: protein detected in immunoblot with anti-SP20
Nav1.2 L1665A = experiment: Saturation binding, IVS5 alanine mutant

[3H]C(O)C(=C)C[C@@H]1C[C@H](O)[C@]2(C)O[C@@H]3C[C@@H]4O[C@@H]5C[C@]6(C)O[C@]7(C)CC[C@@H]8O[C@@H]9C[C@]%10(C)O[C@@H]%11C(C)=CC(=O)O[C@H]%11C[C@H]%10O[C@H]9C[C@@H](C)[C@H]8O[C@H]7C[C@H]6O[C@@]5(C)C/C=C\[C@H]4O[C@H]3C[C@H]2O1 (stereo partly drawn)
rate constant for toxin dissociation (kd-1.2) (Nav1.2): 0.000617 ± 0.000167 s⁻¹ | Kd (wild type Nav1.2): 2.4 nM | Kd (Nav1.5 [1]; Nav1.5, mean ± SEM, n = 6): 12 nM | increase of Kd for Nav1.5 relative to Nav1.2 (Nav1.5 [1]; Nav1.5 vs Nav1.2): approximately 5 fold | rate constant for toxin dissociation (kd-1.5) (Nav1.5 [2]; Nav1.5, 4 °C, dissociation started with 600 nM PbTx1): 0.00217 ± 0.00033 s⁻¹ | dissociation from Nav1.5 faster than from Nav1.2 (Nav1.5 [2]; Nav1.5 vs Nav1.2): about 4 fold | increase of binding affinity vs WT (Nav1.2 F1697A): approximately 2 fold | increase of binding affinity vs WT (Nav1.2 E1688A): approximately 2 fold | Kd (Nav1.4): 1.8 nM | decrease of Kd vs WT (Nav1.2 S1758A): 2 fold | change of Kd vs WT (Nav1.2 I1760A): increase in Kd | change of Kd vs WT (Nav1.2 F1756A): increase in Kd | change of Kd vs WT (Nav1.2 I1761): increase in Kd | change of Kd vs WT (Nav1.2 I1772A): increase in Kd | change of Kd vs WT (Nav1.2 Y1771A): increase in Kd | increase of Kd vs wild type (Nav1.2 L407A): 2–3 fold | increase of Kd vs wild type (Nav1.2 V408A): 2–3 fold | decrease in Kd vs wild type (Nav1.2 F414A): 2–3 fold | decrease in Kd vs wild type (Nav1.2 Y415A): 2–3 fold | decrease in Kd vs wild type (Nav1.2 G412A): 2–3 fold | increase of Kd vs wild type (Nav1.2 M402A): 2–3 fold | increase of affinity vs WT (Nav1.2 V1670A): approximately 2 fold | increase of affinity vs WT (Nav1.2 G1678A): approximately 2 fold | increase of affinity vs WT (Nav1.2 L1669A): approximately 2 fold | increase of affinity vs WT (Nav1.2 Y1684A): approximately 2 fold | Kd greater than WT (Nav1.2 G1664A): 2–3 fold | Kd greater than WT (Nav1.2 L1666A): 2–3 fold | Kd greater than WT (Nav1.2 I1663A): 2–3 fold | binding to mutant channel (Nav1.2 N1662A): did not bind | Kd greater than WT (Nav1.2 L1665A): 2–3 fold
